One test deals with T1, monomeric HIV-1 CA (Human immunodeficiency virus type 1 group M subtype B, UniProt P12493, A146C/E177C/M317A/W316A).
T1 construct: produced by assembly of recombinant CA containing four amino acid substitutions; made in house
Description: ITC binding to monomeric CA (hexamer monomerized with 1 mM DTT). As to conditions: +DTT (1 mM), approximate affinities for weak interactions, NB = no binding detectable.

Another test has as its target T2, HIV-1 CA hexamer (Human immunodeficiency virus type 1 group M subtype B, UniProt P12493, A146C/E177C/M317A/W316A).
T2 construct: produced by assembly of recombinant CA containing four amino acid substitutions; made in house
As to conditions: ITC, −DTT; 50 mM TRIS pH 7.4, 150 mM NaCl; hexamer in syringe titrated into ligand in cell; read-out: Kd, binding to HIV-1 hexamer. (Isothermal titration calorimetry measures the heat released or taken up as one component is titrated into another.)

Where “and” joins values, the source holds several entries; their conditions need not be identical. Equal entries are not always repeated.

A word on the Kd: it is the free concentration of one partner at which half of the binding sites on the other are occupied at equilibrium, for simple one-to-one binding.

As to PF74, the Kd at monomeric HIV-1 CA is 2700 nM; at HIV-1 CA hexamer, 120 nM and ~100 nM.

Values taken from article PMC4214760, “Host Cofactors and Pharmacologic Ligands Share an Essential Interface in HIV-1 Capsid That Is Lost upon Disassembly” (PLoS Pathogens, 2014).
